{"source": "paper PMC8225628", "about": "“Bispecific repurposed medicines targeting the viral and immunological arms of COVID-19” (Scientific Reports, 2021)", "molecular_target": "SARS-CoV-2 M^pro (Severe acute respiratory syndrome coronavirus 2, UniProt P0DTD1)", "test": "biochemical", "settings": "read-out: M^pro % inhibition at 10 µM", "data": [{"compound": "COc1cc(O)c(CC=C(C)C)c(O)c1C(=O)/C=C/c1ccc(O)cc1", "note": "[xanthohumol]", "values": [{"measurement": "inhibition at 10 µM", "value": 11, "unit": "%"}]}]}
